The list shows a part of the results, in another mix than the full data. Active and inactive are the calls of the source. Cut-off read from the data, not from the text of the source: active = protection mostly above about 24% (no sharp cut-off); inactive = mostly below about 26%.

A short description of this test: compounds protecting cells from measles virus cytopathic effect, primary screen, measles RdRp inhibitor project, single point, MLSMR library, absorbance (AID 841). Conditions: Measles virus-infected cells, CPE protection, at 4 µM, hits give high values. Background: Cytopathic effects are the visible damage that an infection or toxin causes in cultured cells.
Consider `O=P1(Nc2ccccn2)COc2ccccc2OC1`, for which the protection (pct of control) was inactive: 16.6%. In the case of `Clc1n[nH]nc1-c1nn[nH][15n]1` it was inactive: 20.9%. In the case of `O=P1(Nc2ncccn2)COc2ccccc2OC1` it was inactive: 15.1%; in that of `Cc1ccc(OCC(=O)OC2CN3CCC2CC3)cc1` (stereo not drawn), inactive: 9.07%. In the case of `O=P1(Nc2ccc(Br)cn2)COc2ccccc2OC1` it was inactive: 3.9%; in that of `Cc1nn(-c2ccccc2)c2c1P(=O)(N1CCOCC1)N(C)C(c1ccccc1)=N2` (stereo not drawn), inactive: 9.65%. For `CCOP1(=S)c2c(C)nn(CCC#N)c2N=C(c2ccc(F)cc2)N1C` (stereo not drawn), the protection (pct of control) was inactive: 10.1%. For `O=[N+]([O-])c1ccc2c(c1)nnn2O`, the protection (pct of control) was inactive: 20.2%. As for `CCOP1(=S)c2c(C)nn(CCC#N)c2N=C(c2ccccc2F)N1C` (stereo not drawn), the protection (pct of control) was inactive: 10.9%. In the case of `O=P(Nc1nccs1)(c1ccccc1)c1nc2ccccc2s1` (stereo not drawn) it was inactive: 16.9%; in that of `Cc1ccc(NCCc2c([N+](=O)[O-])cc([N+](=O)[O-])cc2[N+](=O)[O-])cc1`, inactive: 11.2%. With `COc1cc(C2NCCC3(OCCO3)C2(C)C)cc(OC)c1OC` (stereo not drawn) the figure was inactive: 29.6%; with `CCOP(=O)(Nc1cccc2ccccc12)OCC`, inactive: 5.87%.

Turning to `Cc1cccc(OCC(=O)OC2CN3CCC2CC3)c1` (stereo not drawn), the protection (pct of control) was inactive: 17.1%. With `Cc1c2c(nc3ccccc13)SC(C(Cl)Cl)C2` (stereo not drawn) the figure was inactive: 36.4%. Take `O=C(OC1CN2CCC1CC2)C12CC3CC(CC(C3)C1)C2` (stereo not drawn): the protection (pct of control) is inactive: 2.02%. Consider `ClCCSc1nnc(-c2cccnc2)o1`, for which the protection (pct of control) is inactive: 36.1%. With `CCN(CC)C(=S)SC(NC=O)C(Cl)(Cl)Cl` (stereo not drawn) the figure was inactive: 2.56%; with `O=[N+]([O-])c1cc([N+](=O)[O-])c(-c2ccn[nH]2)s1`, inactive: 21.2%; with `Cc1ccc2nc3c(c(C)c2c1)CC(C(Cl)Cl)S3` (stereo not drawn), inactive: 7.84%. With `Cc1cc(SC(NC(=O)c2ccccc2)C(Cl)(Cl)Cl)nc(C(C)C)n1` (stereo not drawn) the figure was inactive: 6.72%; with `CCC(C)N(CC(C)C)C(=S)SC(NC(C)=O)C(Cl)(Cl)Cl` (stereo not drawn), inactive: 18.1%; with `COP1(=S)c2c(C)nn(CCC#N)c2N=C(c2ccc(F)cc2)N1C` (stereo not drawn), inactive: 8.36%. Turning to `O=C(COc1ccccc1)OC1CN2CCC1CC2` (stereo not drawn), the protection (pct of control) is inactive: 4.53%. With `CC1CCN(C(=O)Oc2c(Cl)cc(Cl)c3cccnc23)CC1` the figure was inactive: 4.67%; with `CN(C)C(=O)OCCc1n(C)cc[n+]1C`, inactive: 4.36%; with `CCc1nc2c(n1)c1c(non1O)c1c2no[n+]1[O-]`, inactive: 6.12%. In the case of `O=[N+]([O-])c1cccc2n[nH]nc12` it was inactive: 39.3%; in that of `CC(=O)N1C2C3N(C(C)=O)C1C1N(C(C)=O)C(C(N1C(C)=O)N3C(C)=O)N2C(C)=O`, inactive: 10.7%; in that of `CCN(N=Nc1nonc1N)c1nonc1N`, inactive: 20.4%.

For `Cc1cc(SC(NC(=O)c2ccc(F)cc2)C(Cl)(Cl)Cl)ncn1` (stereo not drawn), the protection (pct of control) is inactive: 7.8%. Turning to `CCOP(=O)(Nc1ccccc1)OCC`, the protection (pct of control) is inactive: 11.1%.

On to `Oc1ccccc1CNc1ccccn1`, for which the protection (pct of control) was inactive: 2.4%. With `O=C(NC(Sc1ccncn1)C(Cl)(Cl)Cl)c1ccccc1` (stereo not drawn) the figure was inactive: 7.53%; with `Cc1c2non([O-])c-2c(C)[n+](=O)[n+]1[O-]`, inactive: 8.98%. With `CC(C)CC(=O)NC(Sc1ccc(Cl)cc1)C(Cl)(Cl)Cl` (stereo not drawn) the figure was inactive: 10.4%. With `CN1CCCC(OC(=O)C(c2ccccc2)c2ccccc2)C1` (stereo not drawn) the figure was inactive: 5.4%; with `O=P1(Nc2nc3ccc(Cl)cc3s2)COc2ccccc2O1` (stereo not drawn), inactive: 19.7%.

As to `CCC(=O)N1C2C3N(C(=O)CC)C1C1N(C(=O)CC)C(C(N1C(=O)CC)N3C(=O)CC)N2C(=O)CC`, the protection (pct of control) is inactive: 2.33%. In the case of `COC(=O)c1cc2c(s1)N=C(c1ccccc1)N(C)P2(=O)N1CCOCC1` (stereo not drawn) it was active: 84.6%. With `CC(=O)NC(SC(=S)N(CC(C)C)CC(C)C)C(Cl)(Cl)Cl` (stereo not drawn) the figure was inactive: 5.3%; with `CCOC(=O)NC(Sc1ccccc1)C(Cl)(Cl)Cl` (stereo not drawn), inactive: 4.06%. In the case of `CC(=O)NC(SC(=S)N(C)C)C(Cl)(Cl)Cl` (stereo not drawn) it was inactive: 1.82%; in that of `O=C(OC1CN2CCC1CC2)c1cccc(Cl)c1` (stereo not drawn), inactive: 10.1%. For the molecule `C(Cc1nn[nH]n1)Cc1nn[nH]n1`, the protection (pct of control) was active: 24.1%. With `CC(C)C(=O)NC(Sc1ccccc1)C(Cl)(Cl)Cl` (stereo not drawn) the figure was inactive: 8.96%; with `O=P(Nc1nccs1)(c1ccccc1)c1ccccc1`, inactive: 4.79%; with `c1nnnn1CCn1cnnn1`, inactive: 10.4%.

The record behind these values is PubChem BioAssay AID841 (Emory University Molecular Libraries Screening Center, 2007).
